Measured values from patent US7932240B2, “Phosphadiazine HCV polymerase inhibitors IV” (dated 2011).
Several values for one entry are separate records, joined by “and”; a condition that tells them apart may be missing. Equal values may be shown once. Read-outs that look alike come from different tables or passages of the source.

Amino acid sequences for entries named in this document (tags omitted). Residues count along the entry.
UniProt O92972, 2420-3010 limits assumed: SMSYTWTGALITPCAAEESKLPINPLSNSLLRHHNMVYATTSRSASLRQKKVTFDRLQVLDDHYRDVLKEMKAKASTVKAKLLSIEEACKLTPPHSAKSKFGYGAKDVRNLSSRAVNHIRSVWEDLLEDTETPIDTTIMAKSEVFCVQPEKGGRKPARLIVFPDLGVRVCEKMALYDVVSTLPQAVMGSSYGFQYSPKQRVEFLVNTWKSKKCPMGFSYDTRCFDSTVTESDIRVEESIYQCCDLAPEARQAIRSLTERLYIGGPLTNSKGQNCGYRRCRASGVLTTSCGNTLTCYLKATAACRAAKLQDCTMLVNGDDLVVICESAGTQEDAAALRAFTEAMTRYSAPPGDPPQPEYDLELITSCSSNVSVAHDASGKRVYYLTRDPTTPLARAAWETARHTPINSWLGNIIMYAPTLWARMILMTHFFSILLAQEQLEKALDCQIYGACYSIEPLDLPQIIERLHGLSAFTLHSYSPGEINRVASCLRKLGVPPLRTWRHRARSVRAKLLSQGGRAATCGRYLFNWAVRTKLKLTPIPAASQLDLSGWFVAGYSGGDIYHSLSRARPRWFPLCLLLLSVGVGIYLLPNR
UniProt P27958, 2421-3011 limits assumed: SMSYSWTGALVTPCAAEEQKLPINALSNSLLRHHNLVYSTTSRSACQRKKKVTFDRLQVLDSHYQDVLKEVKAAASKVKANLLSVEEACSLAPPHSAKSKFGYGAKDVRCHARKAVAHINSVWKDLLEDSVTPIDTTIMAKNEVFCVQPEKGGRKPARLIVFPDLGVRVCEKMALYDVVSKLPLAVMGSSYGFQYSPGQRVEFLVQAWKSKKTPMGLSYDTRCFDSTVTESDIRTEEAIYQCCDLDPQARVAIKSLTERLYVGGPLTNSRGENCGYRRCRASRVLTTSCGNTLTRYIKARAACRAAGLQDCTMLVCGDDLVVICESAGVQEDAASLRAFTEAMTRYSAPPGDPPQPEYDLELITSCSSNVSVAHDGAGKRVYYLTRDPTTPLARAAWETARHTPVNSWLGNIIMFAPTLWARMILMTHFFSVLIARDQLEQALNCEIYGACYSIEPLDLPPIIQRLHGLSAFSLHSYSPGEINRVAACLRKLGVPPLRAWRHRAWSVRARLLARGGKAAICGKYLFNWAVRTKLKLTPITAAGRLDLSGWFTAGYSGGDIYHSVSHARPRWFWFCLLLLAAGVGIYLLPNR

Assays:
[1] = biological target: HCV genotype 1b polymerase (strain J4) (Hepatitis C virus genotype 1b, UniProt O92972); assay: HCV polymerase assay (BrUTP incorporation ELISA), genotype 1b; settings: read-out: IC50-1b; Table 2
[2] = biological target: HCV genotype 1a polymerase (Hepatitis C virus genotype 1a, UniProt P27958); assay: HCV polymerase assay (BrUTP incorporation ELISA), genotype 1a; settings: Table 2
[3] = test system: Huh-7 cells containing HCV Con1 subgenomic replicon (GS4.1 cells); assay: Cytotoxicity (CC50, viability) alongside the HCV replicon assay
[4] = test system: HCV Con1 subgenomic replicon (genotype 1b) in Huh-7 cells (GS4.1 cells); assay: HCV replicon assay (NS4A ELISA)
[5] = biological target: human DNA-dependent RNA polymerase II (Homo sapiens, UniProt P24928+P30876); assay: RNA polymerase II transcription assay (HeLaScribe nuclear extract); settings: run-off transcript band intensity; compound at 100 μM; N = 1
[6] = biological target: human DNA polymerase beta (Homo sapiens, UniProt P06746); assay: Human cellular DNA polymerase beta assay; settings: read-out: Mean IC50 Values (μM) ± Standard Deviation, human DNA polymerase beta; Table 9; N = 2
[7] = Table 1, NS4A expression by ELISA after 72 hours, two values per cell

CCOP1(=O)N=C(C2=C(O)C(C(C)(C)C)N(CCC(C)(C)C)C2=O)Nc2ccc(NS(C)(=O)=O)cc21 (stereo not shown)
IC50 [1]: 12 nM
1a/1b FC ([2]; polymerase 1a versus 1b): 5
IC50 ([2]; read-out: IC50-1a): 61 nM
CC50 ([3]; Table 1, two values per cell): > 75000 nM
CC50 ([3]; Table 2): > 75000 nM
EC50 [4, 7]: 1.09 nM and 1.8 nM
EC50 ([4]; read-out: EC50-1b, Table 2, replicon genotype 1b): 6.5 nM

Actinomycin D
Percent of positive control [5]: 5.7%
IC50 [6]: 11.6 µM

CCOP1(=O)N=C(C2=C(O)C(C(C)(C)C)N(Cc3ccc(F)c(OC)c3)C2=O)Nc2ccc(NS(C)(=O)=O)cc21 (stereo not shown)
CC50 ([3]; Table 1, two values per cell): > 75000 nM

CCOP1(=O)N=C(C2=C(O)C(C(C)(C)C)N(Cc3ccc(F)c(F)c3)C2=O)Nc2ccc(NS(C)(=O)=O)cc21 (stereo not shown)
CC50 ([3]; Table 1, two values per cell): > 75000 nM
EC50 [4, 7]: 22.6 nM and 14.5 nM

CCOc1ccc2c(c1)NC(C1=C(O)C(C(C)(C)C)N(CCC(C)(C)C)C1=O)=NP2(=O)OCC (stereo not shown)
CC50 ([3]; Table 1, two values per cell): 32000 nM and 35900 nM
EC50 [4, 7]: 7390 nM and 8030 nM

CCOP1(=O)N=C(C2=C(O)C(C3CCC3)N(CCC(C)(C)C)C2=O)Nc2ccc(NS(C)(=O)=O)cc21 (stereo not shown)
CC50 ([3]; Table 1, two values per cell): > 75000 nM
EC50 [4, 7]: 468 nM and 305 nM
